Measured values from several laboratories, pooled; numbers as filed in NIAID ChemDB.

All rows: tests in culture; species: HIV-1; endpoint: fold resistance

An empty or dashed field is not shown.

smiles | method | changes | strain or isolate | cells | value
Cc1cn([C@H]2C[C@H](N=[N+]=[N-])[C@@H](CO)O2)c(=O)[nH]c1=O | XTT | RT-Y188C | NL4-3 | CEM + CEM-SS | 6
Cc1ccnc2c1NC(=O)c1cccnc1N2C1CC1 | cytopathic effect / XTT | RT-A98G V108I | TIBO R82150-resistant (RT A98G V108I) | CEM + CEM-SS | 60
Nc1ccn([C@H]2CC[C@@H](CO)O2)c(=O)n1 | plaque count | RT-D67N K70R M184V T215F K219Q | RTMC(184) (RT D67N K70R M184V T215F K219Q) | HT4 + HT4 LacZ-1 | 3.83
O=c1[nH]cnc2c1ncn2[C@H]1CC[C@@H](CO)O1 | plaque count | RT-L74V Y181C | HXB2 | HT4 + HT4 LacZ-1 | 6.36
CCOCn1c(Cc2ccccc2)c(C(C)C)c(=O)[nH]c1=O | cytopathic effect | RT-V106A | E-2 (RT-V106A) | CEM | 5
C#C[C@@]1(CO)C=C[C@H](n2cc(C)c(=O)[nH]c2=O)O1 | β-galactosidase | RT-A62V V75I F77L F116Y Q151M | HXB2 | MAGI (CCR5) + MAGI | 0.73
Nc1nc(=O)n([C@@H]2CS[C@H](CO)O2)cc1F | plaque count | RT-Y181C M184V | HXB2 | HT4 + HT4 LacZ-1 | >5560
Cc1cn([C@H]2C=C[C@@H](CO)O2)c(=O)[nH]c1=O | luciferase | RT-M41L A62V S68N G112S V118I M184V | Recombinant | HeLa | 0.4
CC[C@H]1C(=O)Nc2ccc(F)cc2N1C(=O)OC(C)C | cytopathic effect | RT-K103N Y144F | P-1 (RT-K103N Y144F) | CEM | 50
Cc1cn([C@H]2C[C@H](N=[N+]=[N-])[C@@H](CO)O2)c(=O)[nH]c1=O | ATP | 8374-P62 GS-8374-resistant | IIIB | MT-2 | 0.9
Cc1cc(Br)cc(S(=O)(=O)c2cccc(N)c2C#N)c1 | β-galactosidase | RT-P236L |  | HeLa + HELA CD4+ | 0.455
Cc1ccnc2c1NC(=O)c1cccnc1N2C1CC1 | XTT | RT-V106I | NL4-3 | CEM + CEM-SS | >100
COc1cc(C(F)(F)F)cc(S(=O)(=O)c2cccc(N)c2C#N)c1 | β-galactosidase | RT-V108I |  | HeLa + HELA CD4+ | 2.07
Nc1ccn([C@H]2CC[C@@H](CO)O2)c(=O)n1 | plaque count | RT-D67N T69D L210W T215Y | JF20 (RT D67N T69D L210W T215Y) | HELA-CD4+ | 3.6
O=c1[nH]cnc2c1ncn2[C@H]1CC[C@@H](CO)O1 | plaque count | RT-V75A | RTMC (RT-V 75A) | CD4+HELA + HeLa | 2
CC(C)CN(C[C@@H](O)[C@H](Cc1ccccc1)NC(=O)O[C@H]1CCO[C@H]2OCC[C@H]21)S(=O)(=O)c1ccc2nc(NC3CC3)sc2c1 | p24 / luminescence | L10I I54V K20R L24I V32I L33F M36I M46I I54M L63P K70Q V82I I84V L89M | NL4-3 | MT-4 | >1667
CCN(c1nc(F)ccc1NC(C)(C)C)C1CCN(C(=O)c2cc3cc(NC(=O)N4CCN(C)CC4)ccc3[nH]2)CC1 | ATP | 8374-P36 GS-8374-resistant | IIIB | MT-2 | 1.4
CCN[C@H]1CO[C@@H]2OCC[C@H](OC(=O)N[C@@H](Cc3cccc(OC)c3)[C@H](O)CN(CC(C)C)S(=O)(=O)c3ccc4nc(NC(C)C)sc4c3)[C@@H]21 | p24 / luminescence | L10F V32I L33F M46L I54M A71V | NL4-3 | MT-4 | 2
Cc1ccnc2c1NC(=O)c1cccnc1N2C1CC1 | cytopathic effect | RT-Y181C | J-2 (RT-Y181C) | CEM | 102
Cn1c2ccccc2c2c1cc(C#N)c(=O)n2-c1ccc([N+](=O)[O-])cc1 | luciferase | RT-K103N Y188L | NNRTI-resistant | HeLa | 0.3
O=c1[nH]cnc2c1ncn2[C@H]1CC[C@@H](CO)O1 | β-galactosidase | RT-M184V | HXB2 | MAGI (CCR5) + MAGI | 0.97
Cc1cc(Cl)cc(S(=O)(=O)c2cccc(N)c2C#N)c1 | β-galactosidase | RT-V108I |  | HeLa + HELA CD4+ | 1.22
CCCN(C)C(=O)Oc1nsnc1-c1c(Cl)ccc(N)c1Cl | MTT | RT-V103A | IIIB | MAGI | 2.26
CC(C)=CCN1c2cc(Cl)cc3[nH]c(=S)n(c23)C[C@@H]1C |  | RT-L74V L100I |  | MT-4 | 4
Cc1ccc(S(=O)(=O)N(CC(C)C)C[C@@H](O)[C@H](Cc2ccccc2)NC(=O)O[C@H]2CO[C@H]3OCC[C@H]32)cc1 | p24 / ELISA | I401T | IIIB | MT-2 | 1.8
Cc1cn([C@H]2C[C@H](N=[N+]=[N-])[C@@H](CO)O2)c(=O)[nH]c1=O | cytopathic effect / XTT | RT-Y181C | UC82-R (RT-Y181C) | CEM + CEM-SS | 1
CC(C)=CCOc1cc(NC(=S)c2ccoc2C)ccc1Cl | XTT | RT-L100I | Dihydrocostatolide-resistant (RT-L100I) | CEM + CEM-SS | 60
CC(C)CN(C[C@@H](O)[C@H](Cc1ccccc1)NC(=O)O[C@H]1CCOC1)S(=O)(=O)c1ccc(N)cc1 | p24 / luminescence | L10F K20T D30N K45I A71V V77I | NL4-3 | MT-4 | 1.6
Cc1cc(O)cc(S(=O)(=O)c2cccc(N)c2C#N)c1 | β-galactosidase | RT-K103N P225H |  | HeLa + HELA CD4+ | 87.3
Cc1cc(S(N)(=O)=O)ccc1NC(=O)COc1ccc(Cl)cc1C(=O)c1cc(Cl)cc(C#N)c1 | β-galactosidase | RT-V106M | NNRTI-resistant (RT V106M) | MAGI | 2.5
CN[C@H]1CO[C@@H]2OCC[C@H](OC(=O)N[C@@H](Cc3ccccc3)[C@H](O)CN(CC(C)C)S(=O)(=O)c3ccc4nc(NC5CC5)sc4c3)[C@@H]21 | p24 / luminescence | L10I I54V K20R L24I V32I L33F M36I M46I I54M L63P K70Q V82I I84V L89M | NL4-3 | MT-4 | 9
Cc1cn([C@H]2C[C@H](N=[N+]=[N-])[C@@H](CO)O2)c(=O)[nH]c1=O | luciferase | RT-T69K K70G V75I F77L F116Y Q151M M184V | NRTI resistant | HeLa | 274.3
Cc1occc1C(=S)Nc1ccc(Cl)c(/C=N/OC(C)(C)C)c1 | cytopathic effect / XTT | RT-T139I | Calanolide A-resistant (RT T139I) | CEM + CEM-SS | 1.5
CCN[C@H]1CO[C@@H]2OCC[C@H](OC(=O)N[C@@H](Cc3ccccc3)[C@H](O)CN(CC(C)C)S(=O)(=O)c3ccc4nc(NC5CC5)sc4c3)[C@@H]21 | p24 / luminescence | L10F V32I L33F M46L I54M A71V | NL4-3 | MT-4 | 1.1
C/C=C/CSc1cc(NC(=S)c2ccsc2C)ccc1Cl | cytopathic effect / XTT | RT-L74V | NL4-3 (RT L74V) | CEM + CEM-SS | 0.4
Nc1ccn([C@H]2C=C[C@@H](CO)O2)c(=O)n1 | plaque count | RT-L74V | HXB2 | CD4+HELA + HeLa | 0.88

Again, the opening 2 rows:

| smiles | method | changes | strain or isolate | cells | value |
|---|---|---|---|---|---|
| Cc1cn([C@H]2C[C@H](N=[N+]=[N-])[C@@H](CO)O2)c(=O)[nH]c1=O | XTT | RT-Y188C | NL4-3 | CEM + CEM-SS | 6 |
| Cc1ccnc2c1NC(=O)c1cccnc1N2C1CC1 | cytopathic effect / XTT | RT-A98G V108I | TIBO R82150-resistant (RT A98G V108I) | CEM + CEM-SS | 60 |

Neighbouring rows are from separate reports. Fold resistance has wild type as its base.